Results on three molecules are retold here after patent US20150158921A1.

For this experiment, the target named is mouse muscle type nAChR α1β1δε (mouse), P04756. The experiment in a line: cell-based or functional assay.
As to TCRSSGRYCRSPYDRRRRYCRRITDACV (modifications not checked) [αO-conotoxin GeXIVA13 (GeXIVA mature peptide isomer with disulfide bonds I-III, II-IV)], the Half-blocking dose IC50, ACh-gated current, oocyte voltage clamp is 671 nM. In the case of TCRSSGRYCRSPYDRRRRYCRRITDACV (modifications not checked) [αO-conotoxin GeXIVA14 (GeXIVA mature peptide isomer with disulfide bonds I-IV, II-III)], the Half-blocking dose IC50, ACh-gated current, oocyte voltage clamp was 473 nM. Consider TCRSSGRYCRSPYDRRRRYCRRITDACV (modifications not checked) [αO-conotoxin GeXIVA12 (GeXIVA mature peptide isomer with disulfide bonds I-II, III-IV)], for which the Half-blocking dose IC50, ACh-gated current, oocyte voltage clamp came out at 394 nM.
